Compound potency records, mixed from different reports. Data source: NIAID ChemDB in PubChem.

Common to all: cytotoxicity tests; cells: Huh7.5.1; method: MTT; endpoint: CC50

CCn is the concentration with n% toxicity to the cells.

smiles	value
CC1=C(/C=C/C(C)=C\C=C\C(C)=C\C(=O)O)C(C)(C)CCC1	>30 µM
NC(=O)c1ncn([C@@H]2O[C@H](CO)[C@@H](O)[C@H]2O)n1	>10 µM
CN1c2cc3c(cc2N=C(c2ccc(C(=O)O)cc2)c2ccccc21)C(C)(C)CCC3(C)C	20 µM
NC(=O)c1nn(Cc2ccccc2N)c2ccccc12	>10 µM
C[C@H]1[C@H](C)CC[C@]2(C(=O)O)CC[C@]3(C)C(=CC[C@@H]4[C@@]5(C)CC[C@H](O)C(C)(C)[C@@H]5CC[C@]43C)[C@H]12	71.1 µg/mL
COc1cccc(C(=O)Nc2cccc(Cn3nc(C(N)=O)c4ccccc43)c2)c1	>10 µM
COc1c(C)c2c(c(O)c1CC(=O)O)C(=O)OC2	>10 µM
NC(=O)c1nn(Cc2ccc(NC(=O)C3CC3)cc2)c2ccccc12	>10 µM
CC1(C)CC[C@]2(C(=O)O)CC[C@]3(C)C(=CC[C@@H]4[C@@]5(C)CC[C@H](O)C(C)(C)[C@@H]5CC[C@]43C)[C@@H]2C1	>200 µg/mL
COc1ccc(C(=O)Nc2cccc(Cn3nc(C(N)=O)c4ccccc43)c2)cc1	>10 µM
Cc1cc2c(cc1-c1cc(/C=C/C(=O)O)ccc1O)C(C)(C)CCC2(C)C	>30 µM
Cc1ccccc1C(=O)Nc1cccc(Cn2nc(C(N)=O)c3ccccc32)c1	>10 µM
CCCCCOc1cc2c(cc1-c1cc(/C=C/C(=O)O)ccc1O)C(C)(C)CCC2(C)C	>30 µM
COc1ccccc1C(=O)Nc1cccc(Cn2nc(C(N)=O)c3ccccc32)c1	>10 µM
CO[C@@H]1[C@H](O)[C@@H](COP(=O)(O)OP(=O)(O)OP(=O)(O)O)O[C@H]1n1ccc(N)nc1=O	>100 µg/mL
CCCCCCCOc1cc2c(cc1/C(C)=C/c1ccc(C(=O)O)cc1)C(C)(C)CCS2(=O)=O	>30 µM

For reference, 2 entries again:

smiles,value
C[C@H]1[C@H](C)CC[C@]2(C(=O)O)CC[C@]3(C)C(=CC[C@@H]4[C@@]5(C)CC[C@H](O)C(C)(C)[C@@H]5CC[C@]43C)[C@H]12,71.1 µg/mL
CN1c2cc3c(cc2N=C(c2ccc(C(=O)O)cc2)c2ccccc21)C(C)(C)CCC3(C)C,20 µM

Rows are shuffled and stem from different studies.